Article PMC8584447, “Adhesive Antimicrobial Peptides Containing 3,4-Dihydroxy-L-Phenylalanine Residues for Direct One-Step Surface Coating” (International Journal of Molecular Sciences, 2021)

Test: Quantification of immobilized peptides on PS surface (bicinchoninic acid assay)
Type: physicochemical
Settings: micro BCA assay; for mass of adsorbed peptide (coverage): 24-well PS plate, 200 μM peptide in 10 mM Tris-HCl pH 8.5, coated 10 min at 37 °C, triplicate mean

Substance	amount of peptide adhered to the PD-coated surface (polydopamine (PD)-coated 24-well PS plate, 200 μM NKC, 24 h at 37 °C) [μg/cm^2]	mass of adsorbed peptide (coverage) [μg/cm^2]
APKAMKLLKKLLKLQKKGI-NH2 (C-terminus assumed) [NKC, reference compound]	13.6	
APKAMKLLKKLLKLQKKGIGGGGSGGGGSY [NKC-DOPA1, NKC with glycine–serine linker and 1 DOPA moiety at the C-terminus]		2.7
APKAMKLLKKLLKLQKKGIGGGGSGGGGSYYY [NKC-DOPA3, NKC with glycine–serine linker and 3 DOPA moieties at the C-terminus]		4.9
APKAMKLLKKLLKLQKKGIGGGGSGGGGSYYYYY [NKC-DOPA5, NKC with glycine–serine linker and 5 DOPA moieties at the C-terminus]		7.2
APKAMKLLKKLLKLQKKGIGGGGSGGGGSYYYYYYY [NKC-DOPA7, NKC with glycine–serine linker and 7 DOPA moieties at the C-terminus]		12.8

Ends that are not written are not given here.
